From the supplement of paper PMC12637763
Positions count from the first letter of the chain named. Some of the results follow. Env chains of viruses from a treatment-interruption trial, translated from the printed DNA. IC50 / IC80 of two broadly neutralizing antibodies; lower = more sensitive virus; >50 µg/ml means not reached and <0.001 µg/ml is below the lowest dose. No active / inactive call.

B1: HIV-1 Env, rebound clone, placebo arm (protein)
chain: MIVMGMKRNWQQWWRGGILLLGMLMMICSAEDNAWVTVYYGVPVWREANVTLFCASDAKAYDTEVHNVWATHACVPTDPSPQEIKLENVTENFNMWKNDMVEQMHEDIISLWDQSLKPCVKLTPLCVTLNCTDYLGSNATNSTSGNNGTISNNITIEDSEKGEIKNCSFNVTTGIRDKMNKEYALLYKTDLVSIDNDNTSYRLISCNTSVITQACPKVTFEPIPIHYCAPAGFAILKCKDKKFNGTGPCKNVSTVQCTHGIRPVVSTQLLLNGSLAEEDVVIRSANFTNNAKVIIVQLNETVEINCTRPNNNTRKGINIGPGRAWYTIKDIVGDIRQAHCNISRPKWNRALEKIVEKLREQFGVNKTIVFNQSSGGDPEIVMHHFNCQGEFFYCNTTGLFNTRWNGTWNDTWENYTAGQDNNGTITLPCRIRQIVNLWQEVGKAMYAPPIRGYINCSSNITGLLLVRDGGIKNSTNDTDNNTEIFRPGGGDMRDNWRSELYKYKVVQVEPVGIAPTRAKRRVVQREKRAVTLGAMFLGFLGTAGSTMGAASLTLTVQVRQLLSGIVQQQNNLLRAIEAQQHLLQLTVWGIKQLQARVLAVERYLRDQQILGIWGCSGKLICTTAVPWNTSWSNKSVDHIWGNMTWMQWEREIENYTGVIYKLLEESQNQQEKNEQDLLELDKWASLWTWFDITHWLWYIRLFIMIVGGLIGLRIVFAVFSLVNRVRQGYSPLSFQTHLPAPRGPDRPEGIEEEGGEPDRGRSVRLVNGFLALIWDDLRSLCLFSYHRLRDLLLIVTRIVELLGRRGWEAIKYLWNLLQYWSQELKNSAVSLLNAFAIAVAEGTDRVIEIIQGAFRAIIHIPRRIRQGLERSLL
B2: HIV-1 Env, rebound clone, placebo arm (protein)
chain: B1 chain with D420S, G423E
B3: HIV-1 Env, rebound clone, placebo arm (protein)
chain: MIVMGMKRNWQQWWRGGILLLGMLMMICSAEDNAWVTVYYGVPVWREANVTLFCASDAKAYDTEVHNVWATHACVPTDPSPQEIKLENVTENFNMWKNDMVEQMHEDIISLWDQSLKPCVKLTPLCVTLNCTDYLGSNATNSTSGNNGTISNNITIEDSEKGEIKNCSFNVTTGIRDKMNKEYALLYKTDLVSIDNDNTSYRLISCNTSVITQACPKVTFEPIPIHYCAPAGFAILKCKDKKFNGTGPCKNVSTVQCTHGIRPVVSTQLLLNGSLAEEDVVIRSANFTNNAKVIIVQLNETVEINCTRPNNNTRKGINIGPGRAWYTIKDIVGDIRQAHCNISRPKWNRALEKIVEKLREQFGVNKTIVFNQSSGGDPEIVMHHFNCQGEFFYCNTTGLFNTRWNDTWENYTAGQGNNETITLPCRIRQIVNLWQEVGKAMYAPPIRGYINCSSNITGLLLVRDGGIKNSTNDTDNNTEIFRPGGGDMRDNWRSELYKYKVVQVEPVGIAPTRAKRRVVQREKRAVTLGAMFLGFLGTAGSTMGAASLTLTVQVRQLLSGIVQQQNNLLRAIEAQQHLLQLTVWGIKQLQARVLAVERYLRDQQILGIWGCSGKLICTTAVPWNTSWSNKSVDHIWGNMTWMQWEREIENYTGVIYKLLEESQNQQEKNEQDLLELDKWASLWTWFDITHWLWYIRLFIMIVGGLIGLRIVFAVFSLVNRVRQGYSPLSFQTHLPAPRGPDRPEGIEEEGGEPDRGRSVRLVNGFLALIWDDLRSLCLFSYHRLRDLLLIVTRIVELLGRRGWEAIKYLWNLLQYWSQELKNSAVSLLNAFAIAVAEGTDRVIEIIQGAFRAIIHIPRRIRQGLERSLL

Assays:
antibody 10-1074 [1] = assay: neutralization IC50; higher = virus less sensitive to the antibody
Experimental: (§1)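 Pseudovirus bearing the Env chain mixed with antibody, from 50 µg/ml in fivefold dilutions, on TZM-bl reporter cells, in duplicate.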

antibody 3BNC117 [2] = assay: as above
Experimental: as §1

antibody 10-1074 [3] = assay: neutralization IC80; higher = virus less sensitive to the antibody
Experimental: as §1

antibody 3BNC117 [4] = assay: as above
Experimental: as §1

Row | Binder | neutralization IC50 (antibody 10-1074 [1]) [µg/mL] | neutralization IC50 (antibody 3BNC117 [2]) [µg/mL] | neutralization IC80 (antibody 10-1074 [3]) [µg/mL] | neutralization IC80 (antibody 3BNC117 [4]) [µg/mL]
1 | B1 | 0.15 | 0.255 | 0.424 | 0.886
2 | B2 | 0.243 | 0.238 | 0.909 | 1.15
3 | B3 | 0.299 | 0.316 | 1.03 | 1.46
